This note sets out measurements from PMC4439126, “The Myelin and Lymphocyte Protein MAL Is Required for Binding and Activity of Clostridium perfringens ε-Toxin” (PLoS Pathogens, 2015).

The series concerns the molecule itself. Kind of series: Western blot of SDS-resistant oligomer.

B1: Clostridium perfringens ε-toxin, activated (ETX) (natural protein)
chain: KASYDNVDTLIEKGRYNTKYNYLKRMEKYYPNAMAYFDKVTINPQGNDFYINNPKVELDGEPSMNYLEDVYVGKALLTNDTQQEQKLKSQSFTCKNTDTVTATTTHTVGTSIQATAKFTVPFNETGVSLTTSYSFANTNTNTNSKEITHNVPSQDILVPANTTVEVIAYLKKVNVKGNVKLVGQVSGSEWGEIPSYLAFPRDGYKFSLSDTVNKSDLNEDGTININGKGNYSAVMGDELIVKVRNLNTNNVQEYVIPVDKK
By stoichiometry N is commonly meant the number of molecules, sites or subunits per partner or assembly. For the protein B1, the “stoichiometry N” value stood at 7.
